A mixed list of measured activities; the numbers were collected in NIAID ChemDB.

Shared fields: whole-cell or culture tests; species: Mycobacterium tuberculosis

MIC bound: limit read from a one-dose screen. For "inactive" no cut-off is given. a–b is a range or a potency band. Inhibition is in % at the dose shown (toxicity tests: loss of growth or viability). Rows are shuffled and stem from different studies. An empty or dashed field is not shown. ECn is the concentration giving n% inhibition of infection, replication or growth.

smiles	cells	endpoint	tested at	strain or isolate	read by	value
NNC(=O)c1ccncc1	-	MIC	-	Isolate UT3181 (deletion)	-	>256 µg/mL
CCOC(=O)c1cnc(C23CC4CC(CC(C4)C2)C3)[nH]1	-	MIC	-	H37Rv	-	>6.25 µg/mL
Cc1ccc(NCCNCCO)c2c(=O)c3ccccc3sc12	VERO	MIC	-	H37Rv	BACTEC	6.25 µg/mL
COC(=O)c1cc([N+](=O)[O-])cc2c(=O)c3cc([N+](=O)[O-])ccc3oc12	-	inhibition	4 µg/mL	H37Rv	-	inactive
C=C1C[C@]23C[C@H]1CC[C@H]2[C@]1(C)CCC[C@](C)(COC(C)=O)[C@H]1C[C@H]3O	-	MIC	-	H37Rv	resazurin / absorbance	>50 µg/mL
CCOC(=O)Nc1cc(NC(C)CCCN(CC)CC)c2ncc(-c3ccc(Cl)cc3)nc2n1	-	EC50	-	H37Rv	-	<12.5 µg/mL
COc1ccc(S(=O)(=O)c2cnc(N/N=C/c3ccc([N+](=O)[O-])o3)nc2N)cc1	-	MIC bound	-	H37Rv	resazurin	>6.25 µg/mL
Cc1c(CN2CCN(C)CC2)c(CN2CCN(C)CC2)c(-c2ccc(Cl)cc2)n1Cc1ccccc1	-	MIC	-	H37Rv	-	<12.5 µg/mL
NC(=O)c1cccc2c(=O)c3ccccc3oc12	-	inhibition	32 µg/mL	H37Rv	-	inactive
CCOC(=O)Nc1cc2c(c(N)n1)N=C(c1cccc(OC)c1)CS2	-	EC50	-	H37Rv	-	<12.5 µg/mL
C/C=C(/C)C(=O)OC1CC(C)(C)CC2C3=CCC4C5(C)CC[C@H](O)C(C)(C)C5CC[C@@]4(C)[C@]3(C)CC[C@@]12C(=O)O	-	MIC	-	H37Rv (isoniazid-resistant)	-	50 µg/mL
NNC(=O)c1ccncc1	-	MIC	-	S-24M (susceptible)	-	0.025 µg/mL
CCCCCCCCCN1C(=O)CC(SCCNC(=O)C2CCCCC2)C1=O	-	MIC	-	H37Rv	-	≤20 µg/mL
Cn1c(C(C)(C)OC(=O)Oc2ccccc2)cnc1[N+](=O)[O-]	-	MIC bound	-	H37Rv	-	>6.25 µg/mL
O=C(O)c1cccc2c(=O)c3cc([N+](=O)[O-])ccc3oc12	-	inhibition	32 µg/mL	H37Rv	-	inactive
CO[C@H]1/C=C/O[C@@]2(C)Oc3c(C)c(O)c4c(O)c(c(/C=N/N5CCN(C/C=C/c6ccccc6)CC5)c(O)c4c3C2=O)NC(=O)/C(C)=C\C=C\[C@H](C)[C@H](O)[C@@H](C)[C@@H](O)[C@@H](C)[C@H](OC(C)=O)[C@@H]1C	-	MIC	-	2237 (RIF-S)	-	0.015 µg/mL
C[C@]1(COc2ccc(N3CCN(Cc4cc5cc(C(F)(F)F)ccc5o4)CC3)cc2)Cn2cc([N+](=O)[O-])nc2O1	-	MIC	-	H37Rv	-	0.012 µg/mL
CCCCCCn1c(-c2ccc(Cl)cc2)cc(CN2CCN(C)CC2)c1C	-	MIC	-	H37Rv	-	<12.5 µg/mL
CCOC(=O)Nc1cc(NC(C)CCCN(CC)CC)c2nccnc2n1	-	EC50	-	H37Rv	-	>12.5 µg/mL
CCCCCCCCN1C(=O)CC(C)C1=O	-	MIC	-	H37Rv	-	≤20 µg/mL
Cc1c([N+](=O)[O-])ccc2oc3ccccc3c(=O)c12	-	inhibition	16 µg/mL	H37Rv	-	inactive
Nc1ccc(C(=O)O)c(O)c1	-	MIC	-	Clinical isolate 7	-	2 µg/mL
C=C1C(=O)[C@@]23[C@H](O)C[C@@H]4C(C)(C)CC[C@@H](OC(C)=O)[C@@]4(C)[C@@H]2CC[C@@H]1[C@H]3OC(C)=O	-	MIC	-	H37Rv	resazurin / absorbance	12.5–25 µg/mL
CC1COc2c(N3CCN(C)CC3)c(F)cc3c(=O)c(C(=O)O)cn1c23	-	Mean MIC	-	H37Ra	-	0.44 µg/mL
CCCCCCn1c(C)c(CN2CCN(C)CC2)c(CN2CCN(C)CC2)c1-c1ccc(Cl)cc1	-	MIC	-	H37Rv	-	<12.5 µg/mL
Nc1ccc2nc3cc(Nc4ccccc4)c(=Nc4ccccc4)cc-3n(-c3ccccc3)c2c1	-	MIC	-	PAS-R	-	0.4 µg/mL
CC1=CC(=O)N(c2ccc(N3CCCCC3)cc2)C1=O	-	MIC	-	Clinical isolate (isoniazid-resistant)	-	≤20 µg/mL
Cc1ccc2oc3ccccc3c(=O)c2c1	-	inhibition	4 µg/mL	H37Rv	-	inactive
CCOC(=O)c1nc(C23CC4CC(CC(C4)C2)C3)[nH]c1C1C2CC3CC(C2)CC1C3	-	MIC	-	H37Rv	-	>6.25 µg/mL
CCCCCCCCCN1C(=O)CC(C)(SCCN)C1=O	-	MIC	-	H37Ra	-	≤20 µg/mL
CCOC(=O)c1sc(N)nc1C(F)(F)F	-	inhibition	6.25 µg/mL	H37Rv	BACTEC	0%
CCOC(=O)Nc1cc(N)c2c(n1)OCC(c1ccc(OC)c(OC)c1)=N2	-	inhibition	12.5 µg/mL	H37Rv	-	0%
C[C@]1(COc2ccc(N3CCC(COc4ccc(F)cc4)CC3)cc2)Cn2cc([N+](=O)[O-])nc2O1	-	MIC	-	H37Rv	-	0.05 µg/mL
Cc1cc(N(CCOS(C)(=O)=O)CCOS(C)(=O)=O)ccc1C=Nc1ccc(-c2csc(-c3ccccc3)n2)c(Cl)c1	-	MIC bound	-	H37Rv	BACTEC	>12.5 µg/mL
C=C1C(=O)[C@@]23[C@H](O)C[C@@H]4[C@@](C)(COC(C)=O)CCC[C@@]4(C)[C@@H]2CC[C@@H]1[C@H]3O	-	MIC	-	H37Rv	resazurin / absorbance	>50 µg/mL
CC(C)[C@@](O)(C(=O)OCC1=CC[N+]2([O-])CC[C@H](O)[C@@H]12)[C@H](C)O	-	inhibition	12.5 µg/mL	H37Rv	BACTEC	-2%
CCCCCCCCCN1C(=O)CCC1=O	-	MIC	-	H37Ra	-	≤20 µg/mL
Cc1ccc(-c2ccc(Cl)cc2)n1Cc1ccccc1	-	MIC	-	103471	-	4 µg/mL
CC(=O)c1c(O)c(C)c(O)c2c1OC1=Cc3c(c(C)nn3-c3ccccc3)C(=O)C12C	-	MIC bound	-	H37Rv	BACTEC	>12.5 µg/mL
CO[C@H]1/C=C/O[C@@]2(C)Oc3c(C)c(O)c4c(O)c(c(/C=N/N5CCN(C)CC5)c(O)c4c3C2=O)NC(=O)/C(C)=C\C=C\[C@H](C)[C@H](O)[C@@H](C)[C@@H](O)[C@@H](C)[C@H](OC(C)=O)[C@@H]1C	-	MIC	-	H37Rv	resazurin / absorbance	0.001 µg/mL
C[C@@H]1CN(c2c(F)c(N)c3c(=O)c(C(=O)O)cn(C4CC4)c3c2F)C[C@H](C)N1	-	MIC	-	S-2M (susceptible)	-	0.2 µg/mL
C=C1C(=O)[C@]23C[C@H]1CC[C@H]2[C@]1(C)CCCC(C)(CO)[C@H]1C[C@H]3O	-	MIC	-	H37Rv	resazurin / absorbance	12.5–25 µg/mL
CC(C)c1ncc(C(=O)O)[nH]1	-	MIC	-	H37Rv	-	>6.25 µg/mL
NC(=O)C1CCCN1C(=O)c1ccc[n+](Cc2ccc(C[n+]3cccc(C(=O)N4CCCC4C(N)=O)c3)cc2)c1	-	inhibition	12.5 µg/mL	H37Rv	BACTEC	-6%
CO[C@H]1/C=C/O[C@@]2(C)Oc3c(C)c(O)c4c(O)c(c(/C=N/N5CCN(C)CC5)c(O)c4c3C2=O)NC(=O)/C(C)=C\C=C\[C@H](C)[C@H](O)[C@@H](C)[C@@H](O)[C@@H](C)[C@H](OC(C)=O)[C@@H]1C	-	MIC	-	Clinical isolate 15	-	0.5 µg/mL
Nc1ccc2oc3ccc(C(=O)O)cc3c(=O)c2c1	-	inhibition	16 µg/mL	H37Rv	-	inactive
C=C1CC(=O)N(CCCCCCCCC)C1=O	-	MIC	-	Clinical isolate (isoniazid-resistant)	-	≤20 µg/mL
CNNC1=NS(=O)(=O)c2cc(C#N)c(Cl)cc2S1	-	MIC bound	-	H37Rv	resazurin	>6.25 µg/mL
CCCCCCCCCN1C(=O)CC(SCCNC(=O)c2ccc(C(C)(C)C)cc2)C1=O	-	MIC	-	H37Ra	-	≤20 µg/mL
CCOC(=O)c1c2c(n3ccccc13)C(=O)c1ccccc1C2=O	-	MIC	-	H37Rv	resazurin	0.78 µg/mL
CC(C)/C=N/NC(=O)c1nc(C2C3CC4CC(C3)CC2C4)[nH]c1C1C2CC3CC(C2)CC1C3	-	MIC	-	H37Rv	-	>6.25 µg/mL
CCCCCCCCCN1C(=O)CC(NC(C)CCN(CC)CC)C1=O	-	MIC	-	H37Rv	-	≤20 µg/mL
O=C(O)c1cccc2c(=O)c3ccccc3oc12	-	inhibition	32 µg/mL	H37Rv	-	inactive
CCCC(=O)OCc1cc(=O)n(C)c2c3c4c(cc12)c(C)cc(=O)n4CO3	-	MIC	-	H37Rv	BACTEC	0.1 µg/mL
Cc1[nH]c(-c2ccc(Cl)cc2)cc1CN1CCN(C)CC1	-	MIC	-	H37Rv	-	<12.5 µg/mL
CCCc1ccc(N(C)C2CCN(c3ccc(OC[C@@]4(C)Cn5cc([N+](=O)[O-])nc5O4)cc3)CC2)cc1	-	MIC	-	H37Rv	-	0.024 µg/mL
O=C(O)c1cnc(C2C3CC4CC(C3)CC2C4)[nH]1	-	MIC	-	H37Rv	-	>6.25 µg/mL
Cc1cc(C)c2oc3ccc([N+](=O)[O-])cc3c(=O)c2c1[N+](=O)[O-]	-	inhibition	4 µg/mL	H37Rv	-	inactive
C=C1C(=O)[C@@]23CC[C@@H]4[C@@](C)(CO)CCC[C@@]4(C)[C@@H]2CC[C@@H]1C3	-	MIC	-	H37Rv	resazurin / absorbance	25–50 µg/mL
c1cnc2c(c1)ccc1cccnc12	-	inhibition	12.5 µg/mL	H37Rv	BACTEC	98%
NCC[C@H](O)C(=O)N[C@@H]1C[C@H](N)[C@@H](O[C@H]2O[C@H](CN)[C@@H](O)[C@H](O)[C@H]2O)[C@H](O)[C@H]1O[C@H]1O[C@H](CO)[C@@H](O)[C@H](N)[C@H]1O	-	Mean MIC	-	H37Ra	-	0.59 µg/mL
COc1ccc(CCN2C(=O)CN(CCN3CC(=O)N(CCc4ccc(OC)c(OC)c4)C(=O)C3)CC2=O)cc1OC	-	inhibition	6.25 µg/mL	H37Rv	BACTEC	0%
O=C(O)c1ccc2c(=O)c3ccccc3oc2c1	-	inhibition	32 µg/mL	H37Rv	-	inactive
Cc1ccc(S(=O)(=O)N(CCOc2c3occc3cc3ccc(=O)oc23)CCN(CCN(CCOc2c3occc3cc3ccc(=O)oc23)S(=O)(=O)c2ccc(C)cc2)S(=O)(=O)c2ccc(C)cc2)cc1	-	MIC bound	-	H37Rv	BACTEC	>12.5 µg/mL
CO[C@H]1/C=C/O[C@@]2(C)Oc3c(C)c(O)c4c(O)c(c(/C=N/N5CCN(C)CC5)c(O)c4c3C2=O)NC(=O)/C(C)=C\C=C\[C@H](C)[C@H](O)[C@@H](C)[C@@H](O)[C@@H](C)[C@H](OC(C)=O)[C@@H]1C	-	Median MIC	-	H37Ra	-	0.005 µg/mL
O=C(CN1C(=O)CCC1=O)Nc1ccc(N2CCCCC2)cc1	-	MIC	-	H37Rv	-	≤20 µg/mL
O=C1C[C@@H]2OCC=C3C[N+]4([O-])CC[C@]56c7ccccc7N1[C@H]5[C@H]2[C@H]3C[C@@H]64	-	MIC	-	H37Rv	BACTEC	≥128 µg/mL
NNC(=O)c1ccncc1	-	MIC	-	H37Rv	-	0.05 µg/mL
Cc1cc2oc3c(ccc(=O)n3C)c(=O)c2c(C)c1Cl	-	inhibition	12.5 µg/mL	H37Rv	BACTEC	51.85%
CCOC(=O)Nc1cc2c(c(N)n1)N=C(c1ccccc1)C(c1ccccc1)O2	-	EC50	-	H37Rv	-	<12.5 µg/mL
COc1ccc(/C=C/c2cc(OC)cc(=O)o2)cc1	-	MIC bound	-	H37Rv	BACTEC	>12.5 µg/mL
CN[C@@H]1[C@H](O[C@H]2[C@H](O[C@H]3[C@H](O)[C@@H](O)[C@H](N=C(N)N)[C@@H](O)[C@@H]3N=C(N)N)O[C@@H](C)[C@]2(O)C=O)O[C@@H](CO)[C@H](O)[C@H]1O	-	MIC	-	9106 (streptomycin isoniazid rifampin-R)	-	>1280 µg/mL
NC(N)=NC(N)=Nc1ccc(S(=O)(=O)Nc2nccs2)cc1	-	MIC bound	-	H37Rv	BACTEC	>12.5 µg/mL
NC[C@H]1O[C@H](O[C@H]2[C@H](O)[C@@H](O[C@H]3O[C@H](CO)[C@@H](O)[C@H](N)[C@H]3O)[C@H](N)C[C@@H]2N)[C@H](O)[C@@H](O)[C@@H]1O	-	Mean MIC	-	H37Ra	-	2.81 µg/mL
CCN(CC)CCCC(C)Nc1cc(/C=C/c2ccc(Cl)cc2)nc2ccc(N(C)C)cc12	VERO	MIC	-	H37Rv	BACTEC	6.25 µg/mL
C[C@]1(COc2ccc(N3CCN(Cc4csc(-c5ccc(C(F)(F)F)cc5)n4)CC3)cc2)Cn2cc([N+](=O)[O-])nc2O1	-	MIC	-	H37Rv	-	0.024 µg/mL

The last 8 rows once more:

smiles | cells | endpoint | tested at | strain or isolate | read by | value
Cc1cc2oc3c(ccc(=O)n3C)c(=O)c2c(C)c1Cl | - | inhibition | 12.5 µg/mL | H37Rv | BACTEC | 51.85%
CCOC(=O)Nc1cc2c(c(N)n1)N=C(c1ccccc1)C(c1ccccc1)O2 | - | EC50 | - | H37Rv | - | <12.5 µg/mL
COc1ccc(/C=C/c2cc(OC)cc(=O)o2)cc1 | - | MIC bound | - | H37Rv | BACTEC | >12.5 µg/mL
CN[C@@H]1[C@H](O[C@H]2[C@H](O[C@H]3[C@H](O)[C@@H](O)[C@H](N=C(N)N)[C@@H](O)[C@@H]3N=C(N)N)O[C@@H](C)[C@]2(O)C=O)O[C@@H](CO)[C@H](O)[C@H]1O | - | MIC | - | 9106 (streptomycin isoniazid rifampin-R) | - | >1280 µg/mL
NC(N)=NC(N)=Nc1ccc(S(=O)(=O)Nc2nccs2)cc1 | - | MIC bound | - | H37Rv | BACTEC | >12.5 µg/mL
NC[C@H]1O[C@H](O[C@H]2[C@H](O)[C@@H](O[C@H]3O[C@H](CO)[C@@H](O)[C@H](N)[C@H]3O)[C@H](N)C[C@@H]2N)[C@H](O)[C@@H](O)[C@@H]1O | - | Mean MIC | - | H37Ra | - | 2.81 µg/mL
CCN(CC)CCCC(C)Nc1cc(/C=C/c2ccc(Cl)cc2)nc2ccc(N(C)C)cc12 | VERO | MIC | - | H37Rv | BACTEC | 6.25 µg/mL
C[C@]1(COc2ccc(N3CCN(Cc4csc(-c5ccc(C(F)(F)F)cc5)n4)CC3)cc2)Cn2cc([N+](=O)[O-])nc2O1 | - | MIC | - | H37Rv | - | 0.024 µg/mL